Measured values from several laboratories, pooled; numbers as filed in NIAID ChemDB.

All rows: growth or infection tests; organism: HIV-1; read by: syncytia; measure: fold resistance

Neighbouring rows are from separate reports.

compound,changes,cell line,strain or isolate,result
CCCCCCCCCC[N+](C)(C)CCCNCc1c(O)cc2c(c1O)-c1cc(ccc1O)[C@H]1NC(=O)[C@@H]3NC(=O)C4NC(=O)[C@@H](Cc5ccc(c(Cl)c5)Oc5cc3cc(c5O)Oc3ccc(cc3Cl)[C@@H](O)[C@H](NC1=O)C(=O)N[C@@H]2C(=O)O)NC(=O)[C@H](N)c1ccc(O)c(c1)Oc1cc(O)cc4c1,RT-K103N,CEM,-,2.14
Cc1ccccc1C(=S)Nc1ccc(Cl)c(C(=O)OC(C)C)c1,RT-E138K,CEM,-,3.7
CC1=C(C(=O)Nc2ccc(Cl)c(C(=O)OC3CCCC3)c2)SCCO1,RT-E138K,CEM,TSAO-resistant (RT E138K),27.5
CC(C)OC(=O)c1cc(NC(=S)c2ccsc2)ccc1Cl,RT-E138K,CEM,-,10.8
CC(C)=CCOc1cc(NC(=S)c2ccoc2C)ccc1Cl,RT-Y181C,CEM,IIIB,4
CC(C)OC(=O)c1cc(NC(=S)OC(C)(C)C)ccc1Cl,RT-E138K,CEM,-,9.16
CC(C)c1c(Sc2ccccc2)n(COCc2ccccc2)c(=O)[nH]c1=O,RT-E138K,CEM,IIIB,6.67
Cc1occc1C(=S)Nc1ccc(Cl)c(SCC=C(Cl)Cl)c1,RT-L100I,CEM,TIBO R82150-resistant (RT L100I),4.6
CCCCCCCCCC[N+](C)(C)CCCNCc1c(O)cc2c(c1O)-c1cc(ccc1O)[C@H]1NC(=O)[C@@H]3NC(=O)C4NC(=O)[C@@H](Cc5ccc(c(Cl)c5)Oc5cc3cc(c5O)Oc3ccc(cc3Cl)[C@@H](O)[C@H](NC1=O)C(=O)N[C@@H]2C(=O)O)NC(=O)[C@H](N)c1ccc(O)c(c1)Oc1cc(O)cc4c1,RT-K103N,CEM,-,2.14
Cc1ccccc1OC(=O)c1cc(NC(=S)OC(C)C)ccc1Cl,RT-L100I,CEM,-,13.8
Cc1occc1C(=S)Nc1ccc(Cl)c(/C=N/OC(C)(C)C)c1,RT-Y188H,CEM,IIIB,5
Cc1occc1C(=O)Nc1ccc(Cl)c(SCC=C(Cl)Cl)c1,RT-Y188H,CEM,HEPT-resistant (RT Y188H),21.5
CC(C)(C)OC(=O)c1cc(NC(=S)OC(C)(C)C)ccc1Cl,RT-L100I,CEM,-,>15.4
COc1ccc(NC(=S)C2=C(C)OCCS2)cc1OCC=C(Cl)Cl,RT-V106A,CEM,Nevirapine-resistant isolate (RT V106A),7.41
Cc1occc1C(=S)Nc1ccc(Cl)c(OCCC(C)C)c1,RT-V106A,CEM,-,13.9
C=C(C)[C@@H]1CC[C@]2(C(=O)NCCCCCCCC(=O)N[C@@H](CC(C)C)[C@@H](O)CC(=O)O)CC[C@]3(C)[C@H](CC[C@@H]4[C@@]5(C)CC[C@H](O)C(C)(C)[C@@H]5CC[C@]43C)[C@@H]12,R22A I84S,HeLa P4 + HeLa,LAI-R(GP41-R22A I84S),>10
CC(C)OC(=O)c1cc(NC(=S)OCC2CC2)ccc1Cl,RT-V106A,CEM,-,78.6
C/C=C/CSc1cc(NC(=S)c2ccoc2C)ccc1Cl,RT-K103N,CEM,-,20
Cc1occc1C(=S)Nc1ccc(Cl)c(/C=N/OC(C)(C)C)c1,RT-V179D,CEM,IIIB,3.3
Cc1occc1C(=O)Nc1ccc(Cl)c(/C=N/N(C)C)c1,RT-L100I,CEM,R82150-resistant (RT L100I),<8.89
Cc1sccc1C(=S)Nc1ccc(Cl)c(C(=O)OC2CCCCC2)c1,RT-K103N,CEM,-,67.9
CC1=C(C(=O)Nc2ccc(Cl)c(OCC=C(Cl)Cl)c2)SCCO1,RT-L100I,CEM,TIBO R82150-resistant (RT L100I),1.67
CC(C)=CCOc1cc(NC(=S)c2ccsc2C)ccc1Cl,RT-Y188L,CEM,IIIB,20
CCOC(=O)c1cc(NC(=S)OC(C)C)ccc1SC,RT-E138K,CEM,-,66.8
CCOCn1c(Cc2ccccc2)c(C(C)C)c(=O)[nH]c1=O,RT-L100I,CEM,IIIB (TIBO 82150) (RT-L100I),10
CC(C)OC(=O)c1cc(NC(=S)c2cccs2)ccc1Cl,RT-V106A,CEM,-,60.7
CCC(CC)OC(=O)c1cc(NC(=S)OC(C)C)ccc1Cl,RT-Y181C,CEM,-,100
CC1=C(C(=S)Nc2ccc(Cl)c(C=NOC(C)(C)C)c2)CCCO1,RT-K103N,CEM,-,6.2
O=S(=O)(Cc1ccccc1I)c1cccc[n+]1[O-],RT-L100I,CEM,IIIB,1.25
CC(C)=CCOc1cc(NC(=S)c2ccsc2C)ccc1Cl,RT-Y188L,CEM,-,211
Cc1sccc1C(=S)Nc1ccc(Cl)c(OCC=C(Cl)Cl)c1,RT-K103N,CEM,TIBO R82913-resistant (RT K103N),57.1
CC(C)OC(=S)Nc1ccc(Cl)c(C(=O)O)c1,RT-V106A,CEM,-,>1
Cc1ccsc1C(=S)Nc1ccc(Cl)c(C(=O)OC2CCCCC2)c1,RT-E138K,CEM,-,4.44
CC(C)c1c(Sc2ccccc2)n(COCc2ccccc2)c(=S)[nH]c1=O,RT-E138K,CEM,IIIB,12.5
C=CCSc1cc(NC(=S)OC(C)C)ccc1Cl,RT-Y181C,CEM,-,113
CC1=C(C(=O)Nc2cc(C(=O)OC(C)C)c(C)cc2F)SCCO1,RT-Y181C,CEM,PYR-resistant (RT Y181C),>4.35
CO/N=C(\C)COc1cc(NC(=S)OC(C)C)ccc1Cl,RT-L100I,CEM,-,14.3
O=C(Nc1ccc(Cl)c(C(=O)OC2CCCCC2)c1)c1ccccc1F,RT-L100I,CEM,-,≥16.9
C=C(C)[C@@H]1CC[C@]2(C(=O)NCCCCCCCC(=O)N[C@@H](CC(C)C)[C@@H](O)CC(=O)O)CC[C@]3(C)[C@H](CC[C@@H]4[C@@]5(C)CC[C@H](O)C(C)(C)[C@@H]5CC[C@]43C)[C@@H]12,I84S,HeLa P4 + HeLa,LAI,>200
C/C=C/CSc1cc(NC(=S)c2ccsc2C)ccc1Cl,RT-K103N,CEM,-,12.9
CC(C)OC(=S)Nc1ccc(Cl)c(C(=O)OC2(C)COC2)c1,RT-Y181C,CEM,-,10
CC(C)OC(=O)c1cc(NC(=S)c2ccccc2N)ccc1Cl,RT-Y181C,CEM,-,100
COc1ccc(NC(=O)C2=C(C)OCCS2)cc1OCC=C(Cl)Cl,RT-L100I,CEM,TIBO R82150-resistant (RT L100I),2.5
CCCOC(=S)Nc1ccc(Cl)c(C(=O)OC(C)C)c1,RT-V106A,CEM,-,110
Cc1ccsc1C(=S)Nc1ccc(Cl)c(C(=O)OC(C)C)c1,RT-V106A,CEM,-,50
C=CCOc1cc(NC(=S)OC(C)C)ccc1C#N,RT-Y181C,CEM,-,13
CC(C)OC(=O)c1cc(NC(=S)c2ccco2)ccc1Cl,RT-L100I,CEM,-,12.1
CCOCn1c(Sc2cc(C)cc(C)c2)c(CC)c(=O)[nH]c1=S,RT-Y181I,CEM,IIIB,190
CC(C)OC(=S)Nc1ccc(Cl)c(C(=O)OC2CCCC2)c1,RT-L100I,CEM,-,37.2
Cc1occc1C(=S)Nc1ccc(Cl)c(OC(=O)OC(C)C)c1,RT-Y188L,CEM,-,>5.5
CC(C)OC(=S)Nc1ccc(Cl)c(C(=O)OC(C)(C)C)c1,RT-L100I,CEM,-,125
C/C=C/COc1cc(NC(=S)c2ccn(C)c2C)ccc1Cl,RT-Y181C,CEM,-,19
CCOC(=O)c1cc(NC(=S)OC(C)C)ccc1C,RT-E138K,CEM,-,1290
Cc1ccsc1C(=O)Nc1ccc(Cl)c(/C=N/OC(C)(C)C)c1,RT-L100I,CEM,-,20.2
CCCCOC(=S)Nc1ccc(Cl)c(C(=O)OC(C)C)c1,RT-E138K,CEM,-,41.7
CC(C)=CCOc1cc(NC(=S)c2ccoc2C)ccc1Cl,RT-E138K,CEM,IIIB,1.7
CCCOC(=O)c1cc(NC(=S)OC(C)C)ccc1Cl,RT-E138K,CEM,-,45.1
Cc1ccc(C)c(CS(=O)c2ccc(Cl)c[n+]2[O-])c1,RT-Y181C,CEM,IIIB,4.7
CC(C)OC(=S)Nc1ccc(Cl)c(C(=O)OCC[Si](C)(C)C)c1,RT-Y181C,CEM,-,9
Cn1cccc1C(=S)Nc1ccc(Cl)c(/C=N/OC(C)(C)C)c1,RT-E138K,CEM,-,4.49

For reference, 9 entries again:

compound,changes,cell line,strain or isolate,result
CC(C)OC(=S)Nc1ccc(Cl)c(C(=O)OC2CCCC2)c1,RT-L100I,CEM,-,37.2
CC(C)OC(=O)c1cc(NC(=S)c2cccs2)ccc1Cl,RT-V106A,CEM,-,60.7
CC1=C(C(=S)Nc2ccc(Cl)c(C=NOC(C)(C)C)c2)CCCO1,RT-K103N,CEM,-,6.2
Cc1ccsc1C(=O)Nc1ccc(Cl)c(/C=N/OC(C)(C)C)c1,RT-L100I,CEM,-,20.2
CC(C)OC(=O)c1cc(NC(=S)c2ccccc2N)ccc1Cl,RT-Y181C,CEM,-,100
CCOCn1c(Sc2cc(C)cc(C)c2)c(CC)c(=O)[nH]c1=S,RT-Y181I,CEM,IIIB,190
CCOC(=O)c1cc(NC(=S)OC(C)C)ccc1C,RT-E138K,CEM,-,1290
Cc1occc1C(=O)Nc1ccc(Cl)c(/C=N/N(C)C)c1,RT-L100I,CEM,R82150-resistant (RT L100I),<8.89
C/C=C/COc1cc(NC(=S)c2ccn(C)c2C)ccc1Cl,RT-Y181C,CEM,-,19

An empty or dashed field is not shown. Fold resistance: result on the changed form divided by that on wild type.